US20140162974A1, “METHODS FOR MODULATION OF PHOSPHORUS AND FGF23” (Luitpold Pharmaceuticals, Inc., priority 2012, published 2014)

Assay: VIT-30 safety: composite cardiovascular endpoint and adverse events
Assay type: in vivo
Protocol: The following example describes a randomized, active controlled trial of subjects with iron deficiency anemia and non-dialysis dependent chronic kidney disease and elevated cardiovascular risk who received either FCM (750 mg on Day 0 and Day 7 for a total of 1500 mg) or iron sucrose (Venofer; 200 mg on 5 visits between Days 0 and 14 for a total of 1000 mg). Study visits were on Days 0, 3, 7, 10, 14, 28, 56, and 120. A phone assessment occurred on Day 90. The primary objective was to estimate the cardiovascular safety and efficacy FCM compared to Venofer in subjects who had iron deficiency anemia (IDA) and impaired renal function.
VIT-30 was a Phase 3, multicenter, randomized, active-controlled, open-label study that compared the safety and efficacy of IV FCM vs. IV Venofer in subjects with IDA and impaired renal function. […]
Safety assessments were summarized for the Safety Population unless stated otherwise. Subjects were analyzed under the treatment actually received.
The difference between FCM and Venofer in the proportion of subjects experiencing the primary composite endpoint was assessed with a 95% 2-sided CI constructed with the normal approximation to the binomial with continuity correction. […] The precision of the estimated treatment group difference was measured by the width of the 95% CI. […]

For “polynuclear iron (III)-hydroxide 4(R)-(poly-(1→4)-O-α-glucopyranosyl)-oxy-2(R),3(S),5(R),6-tetrahydroxy-hexanoate [FCM]”, the “subjects with at least 1 event of the composite safety endpoint in addition to a protocol-defined hypertensive event” value (10 subjects) was 10.5% and the “subjects with primary composite safety endpoint events excluding protocol-defined hypertensive or hypotensive events” value (in vivo) was 5.49%.
